In paper PMC10935098 (Molecules, 2024):

Test system: C57BL/6 mice
Assay: In vivo toxicity analysis

CC(C)C[C@@H]1NC(=O)[C@@H](CCCCN)NC(=O)[C@@H]2CSSC[C@H](NC(=O)[C@H](CC(C)C)NC(=O)[C@@H](CCCCN)NC(=O)[C@@H](CCCCN)NC(=O)[C@@H](N)CC(C)C)C(=O)N[C@@H](CSSC[C@@H](C(N)=O)NC(=O)[C@@H](CCCCN)NC1=O)C(=O)N[C@H](CCCCN)C(=O)N2 [Pep 6]
In vivo safety in mice (10 mg/kg daily intraperitoneal injection for seven days (method: six days)): exceptionally biologically secure | Decrease in body weight of treated mice (10 mg/kg daily intraperitoneal injection, first day): approximately 1 g
